Measured values reported in article PMC6271157.
pKd: −log10 of the molar value. For some assays here: The exact form of at least one protein or probe is not confirmed.

Amino acid sequences for entries named in this document (tags omitted). Residues count along the entry.
UniProt O42275, 24-633: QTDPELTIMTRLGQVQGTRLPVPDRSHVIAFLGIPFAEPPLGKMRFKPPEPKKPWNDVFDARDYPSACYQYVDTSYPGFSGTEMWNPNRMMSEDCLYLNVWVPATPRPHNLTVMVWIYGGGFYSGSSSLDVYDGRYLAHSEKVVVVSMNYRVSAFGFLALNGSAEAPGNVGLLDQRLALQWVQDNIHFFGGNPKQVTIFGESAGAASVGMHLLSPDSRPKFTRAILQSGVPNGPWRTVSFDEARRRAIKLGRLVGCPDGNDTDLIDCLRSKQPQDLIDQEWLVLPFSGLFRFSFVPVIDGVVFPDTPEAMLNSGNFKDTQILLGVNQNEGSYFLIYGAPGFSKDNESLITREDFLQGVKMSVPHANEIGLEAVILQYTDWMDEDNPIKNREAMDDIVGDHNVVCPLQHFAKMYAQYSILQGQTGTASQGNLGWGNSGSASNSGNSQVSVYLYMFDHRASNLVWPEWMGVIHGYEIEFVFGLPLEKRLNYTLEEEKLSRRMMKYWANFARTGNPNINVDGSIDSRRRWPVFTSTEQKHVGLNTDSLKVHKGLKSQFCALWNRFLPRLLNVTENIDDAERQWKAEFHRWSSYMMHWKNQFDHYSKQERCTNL

Legend:
[1] = target: acetylcholinesterase (AChE) (electric eel) (UniProt O42275); assay: capture on aptamer-coated streptavidin plate, Ellman activity read-out; conditions: background (streptavidin/BSA surface) subtracted; 3'-biotin; 8 mM Na2HPO4, 2 mM NaH2PO4, 2.7 mM KCl, 137 mM NaCl, 4 mM MgCl2, pH 7.4, room temperature, 2 h; wells coated with 10 nM AChE, blocked with 1% BSA; native protein; label: 3'-biotin, immobilized on streptavidin plate; single-stranded DNA
[2] = target: acetylcholinesterase (AChE) (electric eel) (UniProt O42275); assay: ELONA; conditions: high ionic strength ~1.2 M, 1137 mM NaCl, 4 mM MgCl2; 5'-biotin (ELONA); 8 mM Na2HPO4, 2 mM NaH2PO4, 2.7 mM KCl, 137 mM NaCl, 4 mM MgCl2, pH 7.4, room temperature, 2 h; wells coated with 10 nM AChE, blocked with 1% BSA; native protein; label: 5'-biotin, detected by streptavidin-HRP; single-stranded DNA

Row | Sequence | binding result [1] | pKd [2]
1 | AAGCATCCGCTGGTTGACTGTAGCTCTGGCAGACGTAGTGTGAAGGTACCAGCTATTGGGATCTTGGACCCTGCGAA [R15/19 3'-biotin] | binds | –
2 | AAGCATCCGCTGGTTGACTGTAGCTCTGGCAGACGTAGTGTGAAGGTACCAGCTATTGGGATCTTGGACCCTGCGAA [R15/19 (also R15/C19)] | – | 6.37
